Results as given in patent publication US20140017336A1, “CO-ADMINISTRATION OF ARSENIC COMPOUNDS AND ANTI-HERPES VIRUS ANTI-VIRALS” (priority 2011, published 2014).

Assays:
[1] = system: EBV Zta mRNA; type: cell-based, Epstein-Barr virus; details: 10 nM ATO and/or 40 μM GCV
[2] = system: EBV BMRF1 mRNA; type: cell-based, Epstein-Barr virus; details: 10 nM ATO and/or 40 μM GCV

## arsenic trioxide [ATO]
[1]
  Zta mRNA expression over 7 days: increased Zta mRNA expression as early as day 3
[2]
  BMRF1 mRNA expression over 7 days: increased levels of BMRF1 mRNA after ATO treatment lagged behind Zta expression
